Compound potency records, mixed from different reports. Data source: NIAID ChemDB in PubChem.

All rows: tests in culture; agent: Mycobacterium avium complex; endpoint: MBC

An empty or dashed field is not shown.

structure,setting,strain or isolate,value
CCN=c1cc2n(-c3ccc(Cl)cc3)c3ccccc3nc-2cc1Nc1ccc(Cl)cc1,-,715,64 µg/mL
NC1CCN(c2c(F)cc3c(=O)c(C(=O)O)cn(C4CC4)c3c2Cl)C1,-,ATCC 35718,>8 µg/mL
CCN(CC)CCCN=c1cc2n(-c3ccc(Cl)cc3)c3ccccc3nc-2cc1Nc1ccc(Cl)cc1,inside macrophages,-,>4 µg/mL
C[C@H]1C[C@H](N)CN1c1cc2c(cc1F)c(=O)c(C(=O)O)cn2-c1ccc(F)cc1F,-,ATCC 35718,>8 µg/mL
CC[C@H]1OC(=O)[C@H](C)[C@@H](O[C@H]2C[C@@](C)(OC)[C@@H](O)[C@H](C)O2)[C@H](C)[C@@H](O[C@@H]2O[C@H](C)C[C@H](N(C)C)[C@H]2O)[C@](C)(OC)C[C@@H](C)C(=O)[C@H](C)[C@@H](O)[C@]1(C)O,-,N-444,>64 µg/mL
Clc1ccc(Nc2cc3nc4ccccc4n(-c4ccc(Cl)c(Cl)c4)c-3cc2=NC2CCNCC2)cc1Cl,inside macrophages,-,>4 µg/mL
CC1COc2c(N3CCN(C)CC3)c(F)cc3c(=O)c(C(=O)O)cn1c23,-,ATCC 35718,>8 µg/mL
CC[C@H]1OC(=O)[C@H](C)[C@@H](O[C@H]2C[C@@](C)(OC)[C@@H](O)[C@H](C)O2)[C@H](C)[C@@H](O[C@@H]2O[C@H](C)C[C@H](N(C)C)[C@H]2O)[C@](C)(OC)C[C@@H](C)C(=O)[C@H](C)[C@@H](O)[C@]1(C)O,-,N-444,>64 µg/mL
CCN=c1cc2n(-c3ccccc3)c3ccc(Cl)cc3nc-2cc1Nc1ccccc1,inside macrophages,-,>4 µg/mL
NC[C@H]1O[C@H](O[C@H]2[C@H](O)[C@@H](O[C@H]3O[C@H](CO)[C@@H](O)[C@H](N)[C@H]3O)[C@H](N)C[C@@H]2N)[C@H](O)[C@@H](O)[C@@H]1O,-,ATCC 35718,16 µg/mL
C[C@@H]1CN(c2c(F)c(N)c3c(=O)c(C(=O)O)cn(C4CC4)c3c2F)C[C@H](C)N1,-,Isolate 90-1257,1 µg/mL
CO[C@H]1/C=C/O[C@@]2(C)Oc3c(C)c(O)c4c(O)c(c5c(c4c3C2=O)NC2(CCN(CC(C)C)CC2)N=5)=NC(=O)/C(C)=C\C=C\[C@H](C)[C@H](O)[C@@H](C)[C@@H](O)[C@@H](C)[C@H](OC(C)=O)[C@@H]1C,-,800-4,1 µg/mL
CN[C@@H]1[C@H](O[C@H]2[C@H](O[C@H]3[C@H](O)[C@@H](O)[C@H](N=C(N)N)[C@@H](O)[C@@H]3N=C(N)N)O[C@@H](C)[C@]2(O)C=O)O[C@@H](CO)[C@H](O)[C@H]1O,-,ATCC 35718,8 µg/mL
CC[C@H]1OC(=O)[C@H](C)[C@@H](O[C@H]2C[C@@](C)(OC)[C@@H](O)[C@H](C)O2)[C@H](C)[C@@H](O[C@@H]2O[C@H](C)C[C@H](N(C)C)[C@H]2O)[C@](C)(OC)C[C@@H](C)C(=O)[C@H](C)[C@@H](O)[C@]1(C)O,-,N-444,32 µg/mL
CC[C@H]1OC(=O)[C@H](C)[C@@H](O[C@H]2C[C@@](C)(OC)[C@@H](O)[C@H](C)O2)[C@H](C)[C@@H](O[C@@H]2O[C@H](C)C[C@H](N(C)C)[C@H]2O)[C@](C)(O)C[C@@H](C)CN(C)[C@H](C)[C@@H](O)[C@]1(C)O,-,ATCC 35718,>8 µg/mL
NC[C@H]1O[C@H](O[C@H]2[C@H](O)[C@@H](O[C@H]3O[C@H](CO)[C@@H](O)[C@H](N)[C@H]3O)[C@H](N)C[C@@H]2N)[C@H](N)C[C@@H]1O,-,ATCC 35718,>64 µg/mL

The last 2 rows once more:

structure,setting,strain or isolate,value
CC[C@H]1OC(=O)[C@H](C)[C@@H](O[C@H]2C[C@@](C)(OC)[C@@H](O)[C@H](C)O2)[C@H](C)[C@@H](O[C@@H]2O[C@H](C)C[C@H](N(C)C)[C@H]2O)[C@](C)(O)C[C@@H](C)CN(C)[C@H](C)[C@@H](O)[C@]1(C)O,-,ATCC 35718,>8 µg/mL
NC[C@H]1O[C@H](O[C@H]2[C@H](O)[C@@H](O[C@H]3O[C@H](CO)[C@@H](O)[C@H](N)[C@H]3O)[C@H](N)C[C@@H]2N)[C@H](N)C[C@@H]1O,-,ATCC 35718,>64 µg/mL

Rows are shuffled and stem from different studies.